According to paper PMC11723632 (PLOS Pathogens, 2024):

Biological target: EBOV GP-ΔM (EBOV GP ectodomain lacking the mucin-like domain) (Zaire ebolavirus, Mayinga-76 …, UniProt Q05320, excluding residues 312–463, N-linked glycan on Asn563)
Settings: both partners purified

B1: Nanosota-EB2-His (VHH)
VHH: QVQLQESGGGVVQAGGSLRLSCSASGRTFSNYAMAWFRQAPGKDREFAAGINYNGERTAYADSVKGRFTISRDDAKNTVYLQMNSLKPEDTAVYSCAARPWSIANLAYTYDSWGQGTQVTVSS
  stoichiometry N: 3 EB2 molecules per GP-ΔM trimer

B2: Nanosota-EB1-His (VHH)
VHH: QVQLQESGGGQVQAGGSLRLSCAASGSTSVIYAMGWYRQAPGKQRELVAAITRGVGSTNYADSVKGRFTISRDNAKNTMYLQMNSLKPEDTAVYYCNARLLVAPPPYEYDYWGQGTQVTVSS
  stoichiometry N: 2 EB1 molecules per GP-ΔM trimer
